## Share of PSTVd stem 3 variants by leaf site

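Three N. benthamiana plants were inoculated with the whole mutant pool. Samples came from the inoculated region at 5 days, the leaf margin at 10 and upper systemic leaves at 12.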

PSTVd intermediate strain, stem 3: wild type GUGGUUCCGGAACCGC, pool pattern GUGGUUCCGNANNCNN; upper and lower strand joined, each 5' to 3', the first 8 letters being the upper strand.

Values are reads per thousand in the sample; higher means more abundant, 0 means not found. Each value is the mean of three plants. "Pool" is the share in the plasmid pool used as inoculum, on the same scale. The inoculated region was read from the minus strand, the other sites from the plus strand. Samples held 27,691 to 54,225 reads, so the smallest values rest on one or two reads. Sequences that differ at fixed positions probably stem from PCR or sequencing errors, and defective variants can be carried along by functional ones. Wild type was 17.3 per thousand in the pool and the most common sequence in every sample (inoculated region 330, 345, 235; leaf margin 794, 766, 816; systemic leaves 830, 792, 869).

| sequence | pool | inoculated region | leaf margin | systemic leaves |
|---|---|---|---|---|
| GUGGUUCCGCAACCUC | 0.785 | 0.324 | 0.0120 | 0 |
| GUGGUUCCGCACGCCA | 0.693 | 0.226 | 0.0120 | 0 |
| GUGGUUCCGCACUCUA | 0.631 | 0.272 | 0.0106 | 0 |
| GUGGUUCCGAACACAA | 1.57 | 0.944 | 0.0241 | 0 |
| GUGGUUCCGAAGUCCC | 1.79 | 1.37 | 1.13 | 1.14 |
| GUGGUUCCGGAAACUU | 0.954 | 0.333 | 0.0120 | 0 |
| GUGGUUCCGUAGCCUC | 1.85 | 1.02 | 0.0347 | 0 |
| GUGGUUCCGCAACCGA | 0.877 | 0.299 | 0.0120 | 0.00811 |
| GUGGUUCCGCAUACUC | 0.785 | 0.297 | 0 | 0 |
| GUGGUUCCGAAGGCCC | 1.63 | 1.07 | 0.441 | 0.0328 |
| GUGGUUCCGGAGUCAG | 0.877 | 0.690 | 0.469 | 0 |
| GUGGUUCCGCAACCCG | 0.739 | 0.328 | 0.0226 | 0 |
| GUGGUUCCGGACUCCC | 0.646 | 0.269 | 0.0106 | 0 |
| GUGGUUCCGGAGACUA | 0.893 | 0.340 | 0 | 0 |
| GUGGUUCCGUAAUCUU | 0.954 | 0.981 | 0.381 | 0.0249 |
| GUGGUUCCGCACACUU | 0.800 | 0.312 | 0.00944 | 0 |
| GUGGUUCCAGAGGCUG | 0.0154 | 0.541 | 0.215 | 0 |
| GUGGUUCUGUACCCCU | 0.0154 | 0 | 0 | 0 |
| GUGGUUCCGCAUACGG | 0.677 | 0.265 | 0.00944 | 0 |
| GUGGUUCCGGAGACGA | 0.877 | 0.238 | 0.0120 | 0 |
| GUGGUUCCGGAGCCAG | 0.723 | 0.765 | 0.120 | 0 |
| GUGGUUCCGAAGGCCG | 1.17 | 1.45 | 0.207 | 0 |
| GUGGUUCCGCAGACAG | 0.785 | 0.644 | 0.144 | 0 |
| GUGGUUCCGGAAUCCA | 1.06 | 0.267 | 0.0106 | 0 |
| GUGGUUCCGAACACUC | 1.31 | 0.555 | 0.0427 | 0.0373 |
| GUGGUUCCGUAGCCGA | 0.831 | 0.292 | 0 | 0 |
| GUGGUUCAGCACGCGG | 0.0154 | 0 | 0 | 0 |
| GUGGUUCCGAAAGCCU | 0.816 | 0.695 | 0.0937 | 0 |
| GUGGUUCCGGAUGCUU | 0.800 | 0.370 | 0 | 0 |
| GUGGUUCCGCACACUC | 0.800 | 0.256 | 0.0200 | 0 |
| GUGGUUCCGGACCCGA | 0.877 | 0.302 | 0.0321 | 0 |
| GUGGUUCCGGAUACAU | 0.708 | 0.579 | 0.0963 | 0 |
| GUGGUUCCGCACACGG | 0.708 | 0.315 | 0.0467 | 0 |
| GUGGUUCCGUAUGCGG | 0.693 | 0.190 | 0.00944 | 0 |
| GUGGUUCCGCAUACGA | 1.25 | 0.527 | 0.0521 | 0 |
| GUGGUUCCGCAACCCC | 0.754 | 0.331 | 0.0106 | 0 |
| GUGGUUCCGGAUGCGG | 2.26 | 1.03 | 0.191 | 0.00621 |

The last 4 entries again:

GUGGUUCCGUAUGCGG (pool 0.693) read inoculated region 0.190; leaf margin 0.00944; systemic leaves 0.
GUGGUUCCGCAUACGA (pool 1.25) read inoculated region 0.527; leaf margin 0.0521; systemic leaves 0.
GUGGUUCCGCAACCCC (pool 0.754) read inoculated region 0.331; leaf margin 0.0106; systemic leaves 0.
GUGGUUCCGGAUGCGG (pool 2.26) read inoculated region 1.03; leaf margin 0.191; systemic leaves 0.00621.

From the data files of Wu et al. 2024, doi:10.1371/journal.ppat.1012142.